Measured values from several laboratories, pooled; numbers as filed in NIAID ChemDB.

Common to all: toxicity to cultured cells; cells: A549; read-out: CC50

Rows are shuffled and stem from different studies. CCn: concentration that lowers growth or viability of the cells by n%.

SMILES	value
COC(=O)[C@@H]1[C@H](c2cc(OC)c3nc4ccccc4nc3c2)c2cc3c(cc2C2=NOC[C@@H]21)OCO3	10 µM
O=c1c2cccnc2[se]n1N(c1ccccc1)c1ccccc1	7.5 µg/mL
O=c1[nH]c(=O)n([C@H]2C[C@H](O)[C@@H](CO)O2)cc1/C=C/Br	1795 µM
C[n+]1cccc(-n2[se]c3ccccc3c2=O)c1	80 µg/mL
COc1cc([C@@H]2c3cc4c(cc3[C@H](OC(C)=O)[C@@H]3COC(=O)[C@@H]23)OCO4)cc2nc3ccccc3nc12	1 µM
N=C(N)c1ccc(NC(=O)CCCC(=O)Nc2ccc(C(=N)N)cc2)cc1	>0.13 µg/mL
Cn1[se]c2ncccc2c1=O	8.5 µg/mL
COC(=O)[C@@H]1[C@H](c2cc(OC)c3nc4cc(Cl)c(Cl)cc4nc3c2)c2cc3c(cc2C2=NOC[C@@H]21)OCO3	>18 µM
O=c1c2cccnc2[se]n1C1CCCCC1	6 µg/mL
N=C(N)c1ccc(N2CCCN(c3ccc(C(=N)N)cc3)CC2)cc1	>83.5 µg/mL
Nc1ncnc2c1ncn2[C@@H]1C[C@@H](O)[C@H](CO)O1	>100 µM
N/C(=N\C1=NCCN1)c1ccc(NC(=O)C2CC2C(=O)Nc2ccc(/C(N)=N/C3=NCCN3)cc2)cc1	284.1 µg/mL
COc1cc([C@@H]2c3cc4c(cc3[C@H](OC(C)=O)[C@@H]3COC(=O)[C@@H]23)OCO4)cc(OC)c1OC	0.55 µM
Nc1ncnc2c1ncn2[C@@H]1C[C@@H](O)[C@H](CO)O1	>100 µM
c1cc(N2CCCN(c3ccc(/C(=N\C4=NCCCN4)NC4=NCCCN4)cc3)CC2)ccc1/C(=N/C1=NCCCN1)NC1=NCCCN1	173.7 µg/mL
COc1cc([C@@H]2c3cc4c(cc3[C@H](OC(C)=O)[C@@H]3COC(=O)[C@H]23)OCO4)cc(OC)c1O	0.23 µM
CCCN=C(N)c1ccc(N2CCN(c3ccc(C(N)=NCCC)cc3)CC2)cc1	1070 µg/mL
O=c1c2cccnc2[se]n1-c1ccccc1	20 µg/mL
COC(=O)[C@H]1[C@@H]2CON=C2c2cc3c(cc2[C@H]1C1=CC(=O)C(=O)C(OC)=C1)OCO3	12 µM

The last 2 rows once more:

SMILES | value
O=c1c2cccnc2[se]n1-c1ccccc1 | 20 µg/mL
COC(=O)[C@H]1[C@@H]2CON=C2c2cc3c(cc2[C@H]1C1=CC(=O)C(=O)C(OC)=C1)OCO3 | 12 µM